A mixed list of measured activities; the numbers were collected in NIAID ChemDB.

Shared fields: target-level tests; species: HIV-1; target: Protease

Rows are shuffled and stem from different studies. Percent inhibition refers to the dose given; in toxicity tests it is the harm to the cells. ICn: concentration for n% inhibition. Fold resistance: result on the changed form divided by that on wild type.

{"SMILES": "CC[C@H](C)[C@H](NC(=O)[C@@H]1CCCN1C(=O)[C@H](O)[C@H](Cc1ccccc1)NC(=O)[C@H](CO)NC(=O)Cc1ccccc1)C(=O)N[C@H](C(N)=O)C(C)C", "read-out": "inhibition", "tested at": "5 µM", "value": "57.2%"}
{"SMILES": "O=C(NCC(F)(F)F)[C@@H]1O[C@]2(c3ccccc3)CN(C(c3ccccc3)c3ccccc3)C(=O)[C@H]1O2", "read-out": "inhibition", "method": "FRET", "tested at": "10 µM", "value": "0%"}
{"SMILES": "CN(C)C(=O)OCCC(C)(C)CN(C[C@@H](O)[C@H](Cc1ccccc1)NC(=O)O[C@H]1CO[C@H]2OCC[C@H]21)S(=O)(=O)c1ccc2c(c1)OCO2", "read-out": "Ki", "method": "fluorescence", "value": "<0.001 µM"}
{"SMILES": "CC(C)[C@H](NC(=O)[C@H](C)NC(=O)OCc1ccccc1)C(=O)N[C@@H](Cc1ccccc1)[C@@H](O)[C@H](O)[C@H](Cc1ccccc1)NC(=O)[C@@H](NC(=O)[C@H](C)NC(=O)OCc1ccccc1)C(C)C", "read-out": "fold resistance", "mutations": "PR-V82F", "value": "3.75"}
{"SMILES": "CC(C)(C)NC(=O)[C@@H]1CSCN1C(=O)[C@@H](O)[C@H](Cc1ccccc1)NC(=O)[C@@H](NC(=O)COc1cccc2ccccc12)c1ccccc1", "read-out": "inhibition", "tested at": "0.05 µM", "value": "45.2%"}
{"SMILES": "COc1ccc(S(=O)(=O)N(C[C@@H](O)[C@H](Cc2ccccc2)NC(=O)O[C@H]2CCOC2)CC(C)(C)CCC#N)cc1", "read-out": "Ki", "method": "fluorescence", "value": "<0.001 µM"}
{"SMILES": "CC[C@H](C)[C@H](NC(=O)[C@@H]1CCCN1C(=O)[C@@H](O)[C@H](Cc1ccccc1)NC(=O)[C@H](CC(N)=O)NC(=O)CCc1ccccc1)C(=O)N[C@H](C(N)=O)C(C)C", "read-out": "inhibition", "tested at": "5 µM", "value": "93%"}
{"SMILES": "CC(O)[C@H](NC(=O)CCCCCCCCCCCCCCC(=O)N[C@@H](CC(N)=O)C(=O)N[C@@H](Cc1ccccc1)C(=O)O)C(=O)N[C@@H](CCc1ccccc1)C(=O)N[C@@H](Cc1ccccc1)C(N)=O", "read-out": "IC50", "value": "2.7 µM"}
{"SMILES": "CC[C@@H](C)[C@H](NC(=O)[C@@H]1CCCN1C(=O)[C@@H](O)[C@H](Cc1ccccc1)NC(=O)[C@H](CC(N)=O)NC(=O)c1ccc2ccccc2n1)C(=O)N[C@H](C(N)=O)C(C)C", "read-out": "inhibition", "tested at": "5 µM", "value": "99.2%"}
{"SMILES": "CON[C@H](C(=O)NC(=O)[C@H]1N(C(=O)[C@@H](O)[C@H](Cc2ccccc2)NC(=O)[C@@H](NC(=O)[C@H](Cc2ccccc2)NC(C)=O)C(C)C)CSC1(C)C)C(C)C", "read-out": "fold resistance", "mutations": "PR-V82F", "value": "2.29"}
{"SMILES": "CC(=O)NCCCCC(C)(C)CN(C[C@@H](O)[C@H](Cc1ccccc1)NC(=O)O[C@H]1CO[C@H]2OCC[C@H]21)S(=O)(=O)c1ccc2c(c1)OCO2", "read-out": "Ki", "method": "fluorescence", "value": "<0.001 µM"}
{"SMILES": "CC(O)[C@H](NC(=O)CCCCCCCCCCCCCCC(=O)N[C@@H](CC(N)=O)C(=O)N[C@@H](Cc1ccccc1)C(=O)O)C(=O)N[C@@H](Cc1ccccc1)C(=O)N[C@@H](Cc1ccccc1)C(N)=O", "read-out": "IC50", "value": "4.6 µM"}
{"SMILES": "Cc1ccc(S(=O)(=O)N[C@@H](C)C(=O)N[C@H](C(=O)N[C@@H](Cc2ccccc2)[C@@H](O)[C@H](O)[C@H](Cc2ccccc2)NC(=O)[C@@H](NC(=O)[C@H](C)NS(=O)(=O)c2ccc(C)cc2)C(C)C)C(C)C)cc1", "read-out": "fold resistance", "mutations": "PR-V82F", "value": "1.2"}
{"SMILES": "COC(=O)[C@H](CC(C)C)N1C[C@@H]2O[C@H](C1=O)[C@H](C(=O)N1CCN(C)CC1)O2", "read-out": "inhibition", "method": "FRET", "tested at": "1 µM", "value": "0%"}
{"SMILES": "CC[C@H](C)[C@H](NC(=O)[C@@H](NC(=O)CCCCCCCCCCCCCCC(=O)N[C@@H](CC(N)=O)C(=O)N[C@@H](Cc1ccccc1)C(=O)O)C(C)O)C(=O)N[C@@H](Cc1ccccc1)C(N)=O", "read-out": "fold resistance", "mutations": "PR-L10I K45R I54V L63P A71V V82T L90M I93L", "value": "~1"}
{"SMILES": "CCOC(=O)NCCCCCC(C)(C)CN(C[C@@H](O)[C@H](Cc1ccccc1)NC(=O)O[C@H]1CO[C@H]2OCC[C@H]21)S(=O)(=O)c1ccc2c(c1)OCO2", "read-out": "Ki", "method": "fluorescence", "value": "<0.001 µM"}
{"SMILES": "CC[C@@H](C)[C@H](NC(=O)[C@@H]1CCCN1C(=O)[C@@H](O)[C@H](Cc1ccccc1)NC(=O)CCc1ccccc1)C(=O)N[C@H](C(N)=O)C(C)C", "read-out": "inhibition", "tested at": "5 µM", "value": "25.8%"}
{"SMILES": "CC(C)C[C@H](CO)NC(=O)[C@H]1O[C@H]2CN(Cc3ccccc3)C(=O)[C@@H]1O2", "read-out": "inhibition", "method": "FRET", "tested at": "10 µM", "value": "0%"}
{"SMILES": "CC(C)COC(=O)[C@H](Cc1ccccc1)NC(=O)CC(=O)N[C@@H](Cc1ccccc1)C(=O)OCC(C)C", "read-out": "inhibition", "method": "absorbance", "tested at": "10 µM", "value": "41%"}
{"SMILES": "COC(=O)NCCC(C)(C)CN(C[C@@H](O)[C@H](Cc1ccccc1)NC(=O)O[C@H]1CO[C@H]2OCC[C@H]21)S(=O)(=O)c1cccc(N)c1", "read-out": "Ki", "method": "fluorescence", "value": "<0.001 µM"}
{"SMILES": "CCCCOC(=O)[C@H](Cc1ccccc1)NC(=O)C(=O)N[C@@H](Cc1ccccc1)C(=O)OCCCC", "read-out": "inhibition", "method": "absorbance", "tested at": "10 µM", "value": "<10%"}
{"SMILES": "CC(C)C[C@H](NC(=O)[C@@H](NC(=O)CCCCCCCCCCCCCCC(=O)N[C@@H](CC(N)=O)C(=O)N[C@@H](Cc1ccccc1)C(=O)O)C(C)O)C(=O)N[C@@H](Cc1ccc(-c2ccccc2)cc1)C(N)=O", "read-out": "IC50", "value": "1.1 µM"}
{"SMILES": "CSC(=O)NCCCCC(C)(C)CN(C[C@@H](O)[C@H](Cc1ccccc1)NC(=O)O[C@H]1CO[C@H]2OCC[C@H]21)S(=O)(=O)c1cccc(N)c1", "read-out": "Ki", "method": "fluorescence", "value": "<0.001 µM"}
{"SMILES": "CC(C)COC(=O)C(Cc1ccc(Cl)cc1)NC(=O)C(=O)NC(Cc1ccc(Cl)cc1)C(=O)OCC(C)C", "read-out": "inhibition", "method": "absorbance", "tested at": "10 µM", "value": "20%"}
{"SMILES": "CC(C)(CCCCN)CN(C[C@@H](O)[C@H](Cc1ccccc1)NC(=O)O[C@H]1CO[C@H]2OCC[C@H]21)S(=O)(=O)c1ccc(N)cc1", "read-out": "Ki", "method": "fluorescence", "value": "<0.001 µM"}
{"SMILES": "O=C([C@H]1O[C@H]2CN(Cc3ccccc3)C(=O)[C@@H]1O2)N1CCSCC1", "read-out": "inhibition", "method": "FRET", "tested at": "10 µM", "value": "0%"}
{"SMILES": "CC(C)(C)OC(=O)N[C@@H](Cc1ccccc1)C(=O)N[C@@H](CC(N)=O)C(=O)N[C@@H](Cc1ccccc1)[C@H](O)C(=O)NCC1CCCCC1", "read-out": "inhibition", "tested at": "1000 µM", "value": "79.7%"}
{"SMILES": "CC(C)(CCCN)CN(C[C@@H](O)[C@H](Cc1ccccc1)NC(=O)O[C@H]1CO[C@H]2OCC[C@H]21)S(=O)(=O)c1ccc(N)cc1", "read-out": "Ki", "method": "fluorescence", "value": "<0.001 µM"}
{"SMILES": "CC(C)[C@H](N)C(=O)N[C@H](C(=O)N[C@@H](Cc1ccccc1)[C@@H](O)C(=O)N[C@@H](Cc1ccccc1)C(=O)N[C@H](C(=O)N[C@H](C(N)=O)C(C)C)C(C)C)C(C)C", "read-out": "inhibition", "tested at": "5 µM", "value": "94.4%"}
{"SMILES": "CC(C)(CCCCNC(=S)NCc1ccco1)CN(C[C@@H](O)[C@H](Cc1ccccc1)NC(=O)O[C@H]1CO[C@H]2OCC[C@H]21)S(=O)(=O)c1ccc2c(c1)OCO2", "read-out": "Ki", "method": "fluorescence", "value": "<0.001 µM"}